Results of unrelated studies side by side (data: NIAID ChemDB).

Shared fields: tests in culture; organism: Hepatitis C virus; method: replicon; measure: EC50

Blank or dashed fields: not listed here. ECn is the concentration giving n% inhibition of infection, replication or growth. Rows are shuffled and stem from different studies. Two numbers with a dash give a range or band.

{"structure": "CC1CCC(C(=O)N(CC2CC2)c2cc(-c3ccc(NC(=O)c4cnccn4)cc3)sc2C(=O)O)CC1", "strain or isolate": "1a", "result": "<0.5 µM"}
{"structure": "Cn1c(C(=O)O)cc2cc(NC(=O)C3(NC(=O)c4ccc5c(C6CCCCC6)c6n(c5c4)CC(=O)Nc4ccccc4-6)CCCC3)ccc21", "cell line": "Huh7", "result": "0.01–1 µM"}
{"structure": "Cc1cc(C)c(-c2cc(-c3cccc(NC(=O)C(Cl)Cl)c3)on2)c(C)c1", "result": "≤10 µM"}
{"structure": "CC1CCC(C(=O)N(c2cc(-c3ccc(NC(=O)c4cscn4)cc3)sc2C(=O)O)C(C)C)CC1", "strain or isolate": "1a", "result": "<0.5 µM"}
{"structure": "CC(C)C(=O)N1c2ccccc2NC2=C(C(=O)CC(C)(C)C2)C1c1ccc(Br)s1", "cell line": "Huh7", "result": "4.438 µM"}
{"structure": "O=C(O)c1ccccc1-c1cc(-c2cccc(NC(=O)C(Cl)Cl)c2)on1", "result": ">10 µM"}
{"structure": "Cc1nn(C)cc1C(=O)Nc1ccc(-c2cc(N(C(=O)C3CCC(C)CC3)C(C)C)c(C(=O)O)s2)cc1", "strain or isolate": "1a", "result": ">0.5 µM"}
{"structure": "NC(=O)COc1ccc2c(c1)S(=O)(=O)N=C(c1c(O)c3cc(F)ccc3n(CCC3CC3)c1=O)N2", "strain or isolate": "1b 45967", "result": "0.024 µM"}
{"structure": "C=C[C@@H]1C[C@]1(NC(=O)[C@@H]1C[C@@H](Oc2cc(-c3ccccc3)nc3cc(OC)ccc23)CN1C(=O)[C@@H](NC(=O)OC(C)(C)C)C(C)(C)C)C(=O)NS(=O)(=O)c1ccc(Cl)cc1", "strain or isolate": "1b", "cell line": "Huh7", "result": "<0.5 µM"}
{"structure": "Cn1cnc(S(=O)(=O)NC(=O)c2ccc3c(C4CCCCC4)c4n(c3c2)C[C@@H](O)[C@@H](O)c2ncccc2-4)c1", "cell line": "Huh7", "result": ">10 µM"}
{"structure": "O=C(Nc1cccc(-c2cc(-c3c(Cl)ccc(Cl)c3Cl)no2)c1)C(Cl)Cl", "result": ">10 µM"}
{"structure": "C=C[C@@H]1C[C@]1(NC(=O)[C@@H]1C[C@@H](Oc2cc(-c3ccccc3)nc3cc(OC)ccc23)CN1C(=O)[C@@H](NC(=O)OC(C)(C)C)C(C)(C)C)C(=O)NS(=O)(=O)c1ccc(C)cc1", "strain or isolate": "1b", "cell line": "Huh7", "result": "<0.05 µM"}
{"structure": "CN(C)CCNC(=O)C1Cc2ccccc2-c2c(C3CCCCC3)c3ccc(C(=O)O)cc3n2C1", "cell line": "Huh7", "result": "0.01–1 µM"}
{"structure": "Cc1cccc(Cl)c1-c1cc(-c2cccc(NC(=O)C(Cl)Cl)c2)on1", "result": "≤10 µM"}
{"structure": "O=C1C[C@H](c2ccccc2OCc2ccccc2)CC2=C1[C@H](c1cccc(OC(=O)c3ccc(Cl)cc3)c1)Nc1ccccc1N2", "cell line": "Huh7", "result": "3.672 µM"}
{"structure": "CCOc1ccccc1-c1cc(-c2cccc(N(C)C(=O)C(Cl)Cl)c2)on1", "result": "≤10 µM"}
{"structure": "CC1(C)CC(=O)C2=C(C1)Nc1cc(C(=O)c3ccccc3)ccc1NC2c1cccc([N+](=O)[O-])c1", "cell line": "Huh7", "result": "5.07 µM"}
{"structure": "Cc1cc(C(=O)Nc2ccc(-c3cc(N(CC4CC4)C(=O)C4CCC(C)CC4)c(C(=O)O)s3)cc2)nn1C", "strain or isolate": "1b", "result": "<0.5 µM"}
{"structure": "Cc1ccc(-c2cc(-c3c(Cl)cccc3Cl)no2)cc1NC(=O)C(Cl)Cl", "result": ">10 µM"}
{"structure": "C=C[C@@H]1C[C@]1(NC(=O)[C@@H]1C[C@@H](Oc2cc(-c3ccccc3)nc3cc(OC)ccc23)CN1C(=O)[C@@H](NC(=O)OC(C)(C)C)C(C)(C)C)C(=O)NS(=O)(=O)c1ccc(F)c(Cl)c1", "strain or isolate": "1b", "cell line": "Huh7", "result": "<0.5 µM"}
{"structure": "O=C(O)/C=C/c1ccc(NC(=O)C2(NC(=O)c3ccc4c(C5CCCCC5)c5n(c4c3)CCCn3cccc3-5)CCCC2)cc1", "cell line": "Huh7", "result": "1–10 µM"}
{"structure": "O=C(Nc1cccc(-c2cc(-c3c(C4CCCC4)cccc3C(F)(F)F)no2)c1)C(Cl)Cl", "result": "≤10 µM"}
{"structure": "CC1(C)CC(=O)C2=C(C1)Nc1cccc(Br)c1NC2c1ccc(Cl)cc1Cl", "cell line": "Huh7", "result": "5.175 µM"}
{"structure": "C=C[C@@H]1C[C@]1(NC(=O)[C@@H]1C[C@@H](Oc2cc(-c3ccccc3)nc3cc(OC)ccc23)CN1C(=O)[C@@H](NC(=O)OC(C)(C)C)C(C)(C)C)C(=O)NS(=O)(=O)c1ccccc1", "strain or isolate": "1b", "cell line": "Huh7", "result": "<0.05 µM"}
{"structure": "COC(=O)c1ccc2c(C3CCCCC3)c3n(c2c1)CC(C(=O)N(C)C)=Cc1ccccc1-3", "cell line": "Huh7", "result": "0.01–1 µM"}
{"structure": "Cc1ncoc1C(=O)Nc1ccc(-c2cc(N(C(=O)C3CCC(C)CC3)C(C)C)c(C(=O)O)s2)cc1", "strain or isolate": "1a", "result": ">0.5 µM"}
{"structure": "CC(C)NS(=O)(=O)NC(=O)c1ccc2c(C3CCCCC3)c3n(c2c1)CC(C(=O)N1CCOCC1)=Cc1ccccc1-3", "cell line": "Huh7", "result": "0.01–1 µM"}
{"structure": "Cc1cc(C(=O)Nc2ccc(-c3cc(N(C(=O)C4CCC(C)CC4)C(C)C)c(C(=O)O)s3)cc2)ccn1", "strain or isolate": "1a", "result": "<0.5 µM"}
{"structure": "C=C[C@@H]1C[C@]1(NC(=O)[C@@H]1C[C@@H](Oc2cc(-c3ccccc3)nc3cc(OC)ccc23)CN1C(=O)[C@H](CC(C)C)NC(=O)OC(C)(C)C)C(=O)NS(=O)(=O)C1CC1", "strain or isolate": "1b", "cell line": "Huh7", "result": "<0.05 µM"}
{"structure": "CC1CCC(C(=O)N(c2cc(-c3ccc(NC(=O)c4ccn[nH]4)cc3)sc2C(=O)O)C2CCC2)CC1", "strain or isolate": "1a", "result": "<0.5 µM"}
{"structure": "C=C[C@@H]1C[C@]1(NC(=O)[C@@H]1C[C@@H](Oc2cc(-c3ccccc3)nc3cc(OC)ccc23)CN1C(=O)[C@@H](NC(=O)C(C)(C)C)C(C)(C)C)C(=O)NS(=O)(=O)C1CC1", "strain or isolate": "1b", "cell line": "Huh7", "result": "<0.5 µM"}
{"structure": "CN(C)S(=O)(=O)NC(=O)c1ccc2c(C3CCCCC3)c3n(c2c1)CC(C(=O)N1CCCC(O)C1)Cc1ccccc1-3", "cell line": "Huh7", "result": "0.01–1 µM"}
{"structure": "Cc1nc(C(=O)Nc2ccc(-c3cc(N(C(=O)C4CCC(C)CC4)C(C)C)c(C(=O)O)s3)cc2)cs1", "strain or isolate": "1a", "result": "<0.5 µM"}

The last 3 rows once more:

structure,strain or isolate,cell line,result
C=C[C@@H]1C[C@]1(NC(=O)[C@@H]1C[C@@H](Oc2cc(-c3ccccc3)nc3cc(OC)ccc23)CN1C(=O)[C@@H](NC(=O)C(C)(C)C)C(C)(C)C)C(=O)NS(=O)(=O)C1CC1,1b,Huh7,<0.5 µM
CN(C)S(=O)(=O)NC(=O)c1ccc2c(C3CCCCC3)c3n(c2c1)CC(C(=O)N1CCCC(O)C1)Cc1ccccc1-3,,Huh7,0.01–1 µM
Cc1nc(C(=O)Nc2ccc(-c3cc(N(C(=O)C4CCC(C)CC4)C(C)C)c(C(=O)O)s3)cc2)cs1,1a,,<0.5 µM